Test results taken from US20230221313A1.

Target: SARS CoV-2 reporter virus particle with spike protein D614G mutation (SARS-CoV-2) (UniProt P0DTC2)
Test: cell-based or functional assay

Substance: anti-SARS-CoV antibody, CR3022
- Fold change GFP-/GFP+ (droplet neutralization, NGS reads), Round 2: 797
